Earlier results, collected in article PMC1617126.
pKd: −log10 of the molar value. Several values for one entry are separate records, joined by “and”; a condition that tells them apart may be missing. Equal values may be shown once.

Sequences of proteins named here, by UniProt entry; tags and fusion partners are left off. Residues count along the entry.
UniProt P13423, 30-196: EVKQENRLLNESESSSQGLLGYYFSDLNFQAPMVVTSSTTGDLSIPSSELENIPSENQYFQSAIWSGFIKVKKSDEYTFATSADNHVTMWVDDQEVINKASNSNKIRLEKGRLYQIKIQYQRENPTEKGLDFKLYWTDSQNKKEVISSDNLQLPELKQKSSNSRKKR
UniProt Q9H6X2, 38-220: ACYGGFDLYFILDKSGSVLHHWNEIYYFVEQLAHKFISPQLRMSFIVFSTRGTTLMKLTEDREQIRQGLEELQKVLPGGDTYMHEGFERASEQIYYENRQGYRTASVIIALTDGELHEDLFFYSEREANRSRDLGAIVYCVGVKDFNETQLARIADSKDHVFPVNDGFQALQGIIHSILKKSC

Biological target: protective antigen (PA) (Bacillus anthracis) (UniProt P13423)

## ANTXR1 I domain (from UniProt Q9H6X2)
  pKd: 6.89 and 5.96
